A short description of the series: TOC and TOX of water treated with chlorhexidine dihydrate filled cell.

Where only a bound is given, the exact number is not on record here.

With `N=C(NCCCCCCNC(=N)NC(=N)Nc1ccc(Cl)cc1)NC(=N)Nc1ccc(Cl)cc1.O.O` [Chlorhexidine dihydrate, chlorhexidine dihydrate], the “TOC (total organic content) of treated water” value amounted to 36 mg/L (20 L, Run 1); 27 mg/L (40 L, Run 1); 23 mg/L (60 L, Run 1); 20 mg/L (80 L, Run 1). Besides, the “TOX (total halides) of treated water” value (20 L, Run 1) was 2.6 mg/L; the “TOX (total halides) of treated water” value (20 L, Run 2) turned out to be 2.7 mg/L; the “TOX (total halides) of treated water” value (40 L, Run 1) is on record as less than 2 mg/L; the “TOX (total halides) of treated water” value (40 L, Run 2) amounted to 2.6 mg/L; the “TOX (total halides) of treated water” value (60 L, Run 1) is on record as 3.2 mg/L; the “TOX (total halides) of treated water” value (60 L, Run 2) was less than 2 mg/L. In addition, the “TOX (total halides) of treated water” value by setting is: (80 L, Run 1) 3.2 mg/L; (80 L, Run 2) less than 2 mg/L.

The record behind these values is patent US20080272062A1, “BROAD SPECTRUM ANTIMICROBIAL PURIFICATION DEVICES AND METHODS FOR PURIFYING FLUIDS” (WATER VISIONS INTERNATIONAL, INC., priority 2006, published 2008).
